PubChem BioAssay AID624099 | ICCB-Longwood – 2012

Assay: 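Knock-downs relieving repression by E2 of an HPV18 LCR luciferase reporter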 (primary screen)
Cell system: human C33A cervical carcinoma cells (HPV-negative) stably expressing BPV1 E2 and an HPV18 LCR luciferase reporter
Reagents: siRNA pool against human genes, 40 nM
Timing: 72 h
Detection: 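Per-well luciferase luminescence, z-scored on each plate against the plate mean and SD with control wells left out, then averaged across three replicate plates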
Direction: mean z-score and z-score: higher = stronger reporter signal, weaker E2 silencing
Active means: 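Mean z ≥ 2 together with z ≥ 2 in two or more of the three replicates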
Shown is an unselected part of about 21,000 deposited reagents. In the full data, 497 (2.4%) are marked active. 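Higher z means weaker E2 silencing; only reporter increases were scored, and knock-downs that hurt cell survival may mask genuine repressor factors.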

DSG4 — mean z-score = 0.62; z-score, replicate A = -0.07; z-score, replicate B = 0.82; z-score, replicate C = 1.1; Outcome = inactive
LOC342934 (retired record) — mean z-score = -0.34; z-score, replicate A = -0.54; z-score, replicate B = -0.25; z-score, replicate C = -0.23; Outcome = inactive
PPP3CB — mean z-score = 2.35; z-score, replicate A = 2.35; z-score, replicate B = 2.6; z-score, replicate C = 2.09; Outcome = active
UCMA — mean z-score = -0.3; z-score, replicate A = -0.41; z-score, replicate B = -0.14; z-score, replicate C = -0.36; Outcome = inactive
H2BC15 — mean z-score = -1.33; z-score, replicate A = -1.55; z-score, replicate B = -1.42; z-score, replicate C = -1.03; Outcome = inactive
ARMCX6 — mean z-score = 2.15; z-score, replicate A = 2.03; z-score, replicate B = 2.24; z-score, replicate C = 2.18; Outcome = active
F12 — mean z-score = 0.11; z-score, replicate A = 0.08; z-score, replicate B = 0.25; z-score, replicate C = -0.01; Outcome = inactive

Reagents above called active, once more:
PPP3CB — mean z-score = 2.35; z-score, replicate A = 2.35; z-score, replicate B = 2.6; z-score, replicate C = 2.09; Outcome = active
ARMCX6 — mean z-score = 2.15; z-score, replicate A = 2.03; z-score, replicate B = 2.24; z-score, replicate C = 2.18; Outcome = active

The listing continues:
CLDN11 — mean z-score = 0.5; z-score, replicate A = 0.71; z-score, replicate B = 0.58; z-score, replicate C = 0.21; Outcome = inactive
CHST5 — mean z-score = 0.84; z-score, replicate A = 1.03; z-score, replicate B = 0.71; z-score, replicate C = 0.79; Outcome = inactive
SOCS6 — mean z-score = 0.19; z-score, replicate A = 0.02; z-score, replicate B = 0.35; z-score, replicate C = 0.21; Outcome = inactive
CARHSP1 — mean z-score = -0.24; z-score, replicate A = -0.68; z-score, replicate B = 0.29; z-score, replicate C = -0.35; Outcome = inactive
FTSJ1 — mean z-score = -1.39; z-score, replicate A = -1.37; z-score, replicate B = -1.48; z-score, replicate C = -1.31; Outcome = inactive
